Test results reported in patent publication US20230233665A1.

Molecular target: ACE2-Fc (UniProt Q9BYF1)

**Q.** What does the source list for “RBD protein of the present invention (SARS-CoV-2 S protein receptor-binding domain, amino acids 319-545) (from UniProt P0DTC2 319-545) (ligand; other documents disagree on this pair)”?
**A.** Kd: 0.0152 µM; koff: 0.0441 s⁻¹; kon: 3.85e+06 M⁻¹ s⁻¹
